## Sequence variants of PSTVd loop 27 after infection

Reference: Wu et al. 2024, doi:10.1371/journal.ppat.1012142.

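Three N. benthamiana plants were inoculated with the whole mutant pool. Progeny were sequenced from the inoculated region (day 5), the margin of the inoculated leaf (day 10) and systemic leaves (day 12).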

Region: loop 27 of PSTVd (intermediate strain), 5' to 3', with the closing base pair. Wild type: UUUUCA. Varied positions (N): UNNNNA.

Numbers give reads per thousand; 0 = not seen among the reads, higher = more abundant.
Each site shows the three plants.
"Pool" is the share in the plasmid pool used as inoculum, on the same scale.
The inoculated region was read from the minus strand, the other sites from the plus strand.

| sequence | pool | inoculated region | leaf margin | systemic leaves |
|---|---|---|---|---|
| UUUCAA | 3.37 | 5.66 6.14 5.35 | 0.633 0.0907 0.155 | 0.113 0.0764 0.0393 |
| UUUCAC | 0.462 | 0.529 0.900 0.680 | 1.10 0.363 0.594 | 0.177 0.0917 0.177 |
| UUUCCA | 1.92 | 0.441 0.540 0.643 | 0.600 0.181 0.258 | 0.225 0.245 0.295 |
| UUUCCG | 0.407 | 0.317 0.0982 0.0756 | 0 0.0302 0 | 0 0.0153 0.0197 |
| UUUCGA | 2.55 | 1.68 1.90 1.38 | 0.133 0.0907 0.181 | 0.0482 0 0.0197 |
| UUUCUA | 5.09 | 9.44 9.20 10.3 | 1.63 0.212 0.155 | 0.145 0.138 0.157 |
| UUUGAA | 5.76 | 6.01 6.10 6.48 | 2.30 0.242 0.646 | 0.0965 0.290 0.177 |
| UUUGCA | 9.03 | 11.6 11.5 11.5 | 3.96 0.907 1.91 | 0.225 0.352 2.79 |
| UUUGCU | 0.0272 | 0 0 0 | 0 0 0 | 0 0 0 |
| UUUGGA | 6.52 | 7.13 6.74 6.22 | 1.10 0.272 0.517 | 0.0482 0.0917 0.177 |
| UUUGUA | 13.7 | 22.2 22.4 25.3 | 6.50 1.21 0.568 | 1.77 0.214 0.315 |
| UUUUAA | 5.32 | 12.6 11.7 12.4 | 5.23 5.62 8.55 | 2.11 3.21 2.16 |
| UUUUAC | 0.0407 | 0.106 0.115 0.170 | 0.0333 0 0.0258 | 0.0161 0 0 |
| UUUUCA | 39.4 | 155 124 130 | 823 907 920 | 805 787 933 |
| UUUUCC | 0.0543 | 0.0353 0.0491 0 | 1.30 0.665 0.620 | 0.0804 1.77 3.48 |
| UUUUCG | 0.0407 | 0.0882 0.0491 0.0756 | 0.433 1.24 1.27 | 0.273 1.80 4.96 |
| UUUUCU | 0.0951 | 0.0705 0.0982 0.0756 | 2.47 1.81 3.82 | 0.193 2.92 3.25 |
| UUUUGA | 5.72 | 12.0 12.2 12.9 | 2.23 0.907 1.01 | 0.225 0.504 0.256 |
| UUUUUA | 13.0 | 49.9 43.0 44.6 | 13.4 2.69 1.40 | 8.01 7.08 1.26 |

The opening 2 entries, copied out:

- UUUCAA (pool 3.37) -> inoculated region 5.66 6.14 5.35; leaf margin 0.633 0.0907 0.155; systemic leaves 0.113 0.0764 0.0393
- UUUCAC (pool 0.462) -> inoculated region 0.529 0.900 0.680; leaf margin 1.10 0.363 0.594; systemic leaves 0.177 0.0917 0.177

The authors trace changes outside the varied positions to PCR and sequencing errors or to mutation in the plant; presence does not show that a variant is infectious alone.
For reference, wild type rose from 39.4 per thousand in the pool to 155, 124, 130 (inoculated region), 823, 907, 920 (leaf margin) and 805, 787, 933 (systemic leaves).
With 30,013-65,426 reads a sample, very low values are single reads.